A mixed list of measured activities; the numbers were collected in NIAID ChemDB.

Common to all: growth or infection tests; agent: Mycobacterium tuberculosis

Conditions beyond the fields shown may differ between rows.

compound,mutations,read by,strain,measure,dose,value
Cl.Cl.O=[N+]([O-])c1ccc(C(O)CN2CCN(CCO)CC2)cc1,-,BACTEC,H37Rv,MIC,-,≥12.8 µg/mL
CCOc1ccc(NC(=S)NNC(=O)COc2cnccn2)cc1,-,-,H37Rv,MIC,-,85 µg/mL
COc1c(N2CCNC(C)C2)c(F)cc2c(=O)c(C(=O)O)cn(C3CC3)c12,-,-,23 strains (rifampin- isoniazid-susceptible),MIC50,-,0.1 µg/mL
CCc1ccc(-c2cc(CN3CCOCC3)c(C)n2-c2ccc(F)cc2)cc1,V681I M492T V564A,-,H37Rv DR6,MIC,-,0.66 µM
C[C@H]1COc2c(N3CCN(C)CC3)c(F)cc3c(=O)c(C(=O)O)cn1c23,-,-,Isolate 16,MIC,-,0.25 µg/mL
COc1ccc(/C=C/C(=O)c2c(O)cc(O[C@@H]3O[C@H](CO)[C@@H](O)[C@H](O)[C@H]3O[C@@H]3O[C@@H](C)[C@H](O)[C@@H](O)[C@H]3O)cc2O)cc1O,-,-,-,MIC50,-,>128 µg/mL
CCOc1cc2c(cc1F)n([O-])c(C)c(Sc1ccccc1)[n+]2=O,-,-,H37Rv,inhibition,6.25 µg/mL,19%
CCN=c1cc2n(-c3ccc(Cl)cc3)c3ccccc3nc-2cc1Nc1ccc(Cl)cc1,-,-,2218 (SM INH THA-RES),MIC,-,0.12 µg/mL
CO[C@H]1/C=C/O[C@@]2(C)Oc3c(C)c(O)c4c(=O)c(c5oc6cc(N7CCN(CC(C)C)CC7)cc(=O)c6nc5c4c3=C2O)NC(=O)/C(C)=C\C=C\[C@H](C)[C@H](O)[C@@H](C)[C@@H](O)[C@@H](C)[C@H](OC(C)=O)[C@@H]1C,-,-,2230 (rifampin-resistant),MBC,-,0.2 µg/mL
O=[n+]1c(Sc2ccccc2)c(CBr)n([O-])c2cc(C(F)(F)F)ccc21,-,-,H37Rv,MIC,-,>6.25 µg/mL
NNC(=O)c1ccncc1,-,-,27 strains (levofloxacin-susceptible),MIC50,-,0.1 µg/mL
O=c1oc2ccc3ccccc3c2c(O)c1N=Nc1ccccc1,-,resazurin,H37Rv,inhibition,6.25 µg/mL,62%
NNC(=O)c1ccncc1,-,-,Isolate 9,MIC,-,2 µg/mL
Cc1cc(C)nc(NS(=O)(=O)c2ccc(NC(=O)c3cccn4c(=O)c5ccccc5nc34)cc2)n1,-,resazurin,H37Rv,inhibition,6.25 µg/mL,3%
CCCCn1c(-c2ccc(C)cc2)cs/c1=N\NC(=O)COc1cnccn1,-,-,H37Rv,MIC,-,8.7 µg/mL
Cc1c(CN2CCOCC2)cc(-c2ccc(Cl)cc2)n1-c1ccc(C(C)C)cc1,-,-,H37Rv,MIC90,-,6.74 µM
O=C(Nc1cccc2c(C3CCCCC3)cc(C3CCCCC3)nc12)C(F)(F)F,-,-,Isoniazid-resistant,MIC,-,50 µg/mL
COc1ccc2cc3[n+](cc2c1OC)CCc1cc2c(cc1-3)OCO2,-,BACTEC,H37Rv,inhibition,12.5 µg/mL,18%
CC(=O)OCC(=O)[C@H]1CC[C@H]2[C@@H]3CCC4=CC(=O)CC[C@]4(C)[C@H]3CC[C@]12C,-,-,-,MIC50,-,16 µg/mL
Cc1ccc(-n2c(-c3ccc(Cl)cc3)cc(CN3CCOCC3)c2C)cc1,-,-,H37Rv,MIC90,-,30.76 µM
CCN=c1cc2n(-c3ccc(Cl)cc3)c3ccc(Cl)cc3nc-2cc1Nc1ccc(Cl)cc1,-,-,H37Rv,MIC,-,0.25 µg/mL
CCc1ccnc2c([N+](=O)[O-])cc(C(C)=O)c(OC(C)C)c12,-,-,Rifampicin-resistant,MIC,-,50 µg/mL
CC(=O)NC[C@H]1CN(c2ccc(N3CCOCC3)c(F)c2)C(=O)O1,-,-,-,MIC50,-,0.25 µg/mL
CC(C)=CCC1(O)C(=O)c2ccccc2C1(O)C(=O)O,-,BACTEC,H37Rv,MIC bound,-,>12.5 µg/mL
O=C1NC(=S)N/C1=C/c1cccc(OCCc2ccccc2)c1,-,-,H37Rv,EC50,-,<6.25 µg/mL
Cc1ccc2c(c1)n([O-])c(C)c(Cl)[n+]2=O,-,-,H37Rv,inhibition,6.25 µg/mL,100%
CC[C@H]1OC(=O)[C@H](C)[C@@H](O[C@H]2C[C@@](C)(OC)[C@@H](O)[C@H](C)O2)[C@H](C)[C@@H](O[C@@H]2O[C@H](C)C[C@H](N(C)C)[C@H]2O)[C@](C)(OC)C[C@@H](C)C(=O)[C@H](C)[C@@H](O)[C@]1(C)O,-,-,22 strains (rifampin- isoniazid-resistant),MIC50,-,6.25 µg/mL
C[C@H]1COc2c(N3CCN(C)CC3)c(F)cc3c(=O)c(C(=O)O)cn1c23,-,-,23 strains (rifampicin-resistant),MIC90,-,6.25 µg/mL
CCCCN(CCCC)Cc1c(C)[nH]c2ccc(N(C)C)cc2c1=O,-,BACTEC,H37Rv,inhibition,12.5 µg/mL,-4%
NC(=O)c1ncn([C@@H]2O[C@H](CO)[C@@H](O)[C@H]2O)n1,-,-,-,MIC90,-,64 µg/mL
Oc1ccccc1/C=N/Nc1ccc2ccccc2n1,-,BACTEC,H37Rv,MIC,-,≥12.5 µg/mL
Cc1c(Sc2ccccc2)[n+](=O)c2cc(Cl)ccc2n1[O-],-,-,H37Rv,MIC,-,0.39 µg/mL
O=c1[nH]c2ccc(Cl)cc2c(O)c1N=Nc1ccc(Cl)cc1,-,resazurin,H37Rv,inhibition,6.25 µg/mL,98%
CCCOc1ccc(/C=C2/NC(=S)NC2=O)cc1,-,-,H37Rv,inhibition,6.25 µg/mL,95%
COc1ccc(/C=C2\CN(C)C/C(=C\c3ccc(OC)cc3)C2=O)cc1,-,BACTEC,H37Rv,inhibition,12.5 µg/mL,0%
COc1cccc(/C=C/C(=O)c2c(O)c3cc(C)c(C)cc3oc2=O)c1O,Isoniazid-resistant,agar,INHR-MTB,MIC90,-,>6.25 µg/mL
O=C1NC(=O)/C(=C/c2cccc(OCc3ccc(Cl)cc3)c2)N1,-,-,H37Rv,inhibition,6.25 µg/mL,93%
NC(=O)c1cnccn1,-,-,T494,MIC,-,>900 µg/mL
COc1ccc2cc3[n+](cc2c1OC)CCc1cc2c(cc1-3)OCO2,-,-,-,MIC90,-,128 µg/mL
COc1cccc(/C=C/C(=O)c2c(O)c3ccccc3oc2=O)c1O,Isoniazid-resistant,agar,INHR-MTB,MIC90,-,>6.25 µg/mL
CC(C)n1c(-c2ccc(Cl)cc2)cs/c1=N\NC(=O)COc1cnccn1,-,-,H37Rv,MIC,-,16 µg/mL
CCOC(=O)C1=C(Nc2ccc(Cl)c(Cl)c2)OC/C1=N/NS(=O)(=O)c1ccc(C)cc1,-,BACTEC,H37Rv,MIC bound,-,>12.5 µg/mL
CC(=O)NC[C@H]1CN(c2ccc(N3CCN(c4ccc([N+](=O)[O-])s4)CC3)c(F)c2)C(=O)O1,-,-,35801,MIC,-,≤0.125 µg/mL
Cc1c(Sc2ccccc2)[n+](=O)c2ccc(C(F)(F)F)cc2n1[O-],-,-,H37Rv,MIC,-,0.39 µg/mL
NC[C@@H]1O[C@H](O[C@H]2[C@@H](O)[C@H](O[C@@H]3[C@@H](O)[C@H](N)C[C@H](N)[C@H]3O[C@H]3O[C@H](CO)[C@@H](O)[C@H](O)[C@H]3N)O[C@@H]2CO)[C@H](N)[C@@H](O)[C@@H]1O,-,-,-,MIC90,-,32 µg/mL
C[C@@H]1CN(c2c(F)c(N)c3c(=O)c(C(=O)O)cn(C4CC4)c3c2F)C[C@H](C)N1,-,-,891868,MIC,-,0.2 µg/mL
C[C@@H](O)[C@H](N)C(=O)O,-,BACTEC,H37Rv,inhibition,12.5 µg/mL,-1%
CC(C)N=c1cc2n(-c3ccc(Cl)cc3)c3ccccc3nc-2cc1Nc1ccc(Cl)cc1,-,-,MTB12 (PZA-resistant),MIC,-,0.12 µg/mL
COc1ccc(N=Nc2c(O)c3c(ccc4ccccc43)oc2=O)cc1,-,resazurin,H37Rv,MIC,-,<6.25 µg/mL
O=C1NC(=O)/C(=C/c2ccc(C(F)(F)F)cc2)N1,-,-,H37Rv,inhibition,6.25 µg/mL,78%
Cc1ccc2c(c1)n([O-])c(C)c(S(=O)(=O)c1ccccc1)[n+]2=O,-,-,H37Rv,MIC,-,3.13 µg/mL
Cc1cccc(-n2nc3c(=O)n(C)c(=O)n(C)c3nc2=O)c1,-,BACTEC,H37Rv,inhibition,12.5 µg/mL,0%
COc1c(C(C)=O)cc([N+](=O)[O-])c2nc(C(C)(C)C)ccc12,-,-,H37Rv,inhibition,6.25 µg/mL,0%
Cc1ccc(-c2cc(CN3CCOCC3)c(C)n2-c2ccc(F)cc2)cc1,Q40R,-,H37Rv DR7,MIC,-,0.68 µM
CSC(=S)NN=C1CCCCC1,-,BACTEC,H37Rv,inhibition,128 µg/mL,100%
CO[C@H]1/C=C/O[C@@]2(C)Oc3c(C)c(O)c4c(O)c(c(/C=N/N5CCN(C6CCCC6)CC5)c(O)c4c3C2=O)NC(=O)/C(C)=C\C=C\[C@H](C)[C@H](O)[C@@H](C)[C@@H](O)[C@@H](C)[C@H](OC(C)=O)[C@@H]1C,-,-,H37Rv (kanamycin-resistant),MIC,-,1.25 µg/mL
CCCCCCCOc1c(C(C)=O)cc([N+](=O)[O-])c2nccc(CC)c12,-,-,H37Rv,MIC,-,1 µg/mL
NNC(=O)c1ncn([C@@H]2O[C@H](CO)[C@@H](O)[C@H]2O)c1N,-,BACTEC,H37Rv,inhibition,12.5 µg/mL,13%
O=C1NC(=S)N/C1=C/c1cccc(OCc2ccccc2)c1,-,-,H37Rv,inhibition,6.25 µg/mL,94%
CC1NOC(NS(=O)(=O)c2ccc(N=Nc3c(O)c(C(=O)O)cc4ccccc34)cc2)C1C,-,BACTEC,H37Rv,inhibition,12.5 µg/mL,-10%
COc1cc2c(cc1OC)-c1cc3ccc(OC)c(OC)c3c[n+]1CC2,-,-,-,MIC90,-,>128 µg/mL
CC(C)NC(=S)NNC(=O)COc1cnccn1,-,-,H37Rv,MIC,-,56 µg/mL
CCOc1cc2c(cc1F)[n+](=O)c(Sc1ccccc1)c(C)n2[O-],-,-,H37Rv,MIC,-,>6.25 µg/mL
O=C(/C=C/c1ccc(O)cc1O)c1c(O)c2ccccc2oc1=O,Isoniazid-resistant,agar,INHR-MTB,MIC90,-,>6.25 µg/mL
CC(=O)C(Cl)C(=O)c1c(C)[nH]n(-c2ccccc2)c1=O,-,resazurin,H37Rv,inhibition,6.25 µg/mL,-11%
O=c1[nH]c2ccc(Cl)cc2c(O)c1N=Nc1ccccc1[N+](=O)[O-],-,resazurin,H37Rv,MIC,-,<6.25 µg/mL
O=c1c(O)c(-c2ccccc2)oc2cc(O)cc(O)c12,-,BACTEC,H37Rv,MIC,-,≥12.5 µg/mL
O=[n+]1c(Sc2ccccc2)c(CBr)n([O-])c2cc(Cl)ccc21,-,-,H37Rv,MIC,-,6.25 µg/mL
COC(=O)CCC(NC(=S)N/N=C(\C)c1cnccn1)C(=O)OC,-,BACTEC,H37Rv,inhibition,12.5 µg/mL,0%
Cc1c(S(=O)(=O)c2ccccc2)[n+](=O)c2cc(F)c(F)cc2n1[O-],-,-,H37Rv,inhibition,6.25 µg/mL,27%
O=c1[nH]c2c([N+](=O)[O-])cccc2c(O)c1N=Nc1ccc(Cl)c(Cl)c1,-,resazurin,H37Rv,inhibition,6.25 µg/mL,79%
CO[C@H]1/C=C/O[C@@]2(C)Oc3c(C)c(O)c4c(=O)c(c5oc6cc(N7CCN(C(C)C)CC7)cc(=O)c6nc5c4c3=C2O)NC(=O)/C(C)=C\C=C\[C@H](C)[C@H](O)[C@@H](C)[C@@H](O)[C@@H](C)[C@H](OC(C)=O)[C@@H]1C,-,-,2624 (rifampin-sensitive),MBC,-,0.012 µg/mL
COC(=O)[C@H]1[C@H](O)[C@@H](C)[C@@H](O)[C@](C)(O)/C=C(\C)C2=C3C(=C(C)C(=O)c4c(O)c(c(C)c(OC(C)=O)c43)NC(=O)/C(C)=C/C=C\[C@@H](C)C(O)[C@@H](C)[C@H]1O)OCO2,-,-,ETA-R,MIC,-,0.8 µg/mL
Cc1cc2oc(=O)c(C(=O)/C=C/c3ccc(C(F)(F)F)cc3)c(O)c2cc1C,Isoniazid-resistant,agar,INHR-MTB,MIC90,-,>6.25 µg/mL
C[C@@H]1CN(c2c(F)c(N)c3c(=O)c(C(=O)O)cn(C4CC4)c3c2F)C[C@H](C)N1,-,-,23 strains (rifampicin-resistant),MIC90,-,3.13 µg/mL
CC(C)C[C@H](NC(=O)[C@H](Cc1ccccc1)NC(=O)CNC(=O)CNC(=O)[C@@H](N)Cc1ccc(O)cc1)C(=O)O,-,BACTEC,H37Rv,inhibition,12.5 µg/mL,0%
CC(=O)c1cc([N+](=O)[O-])c2ncccc2c1C1CCCC1,-,-,H37Rv,inhibition,6.25 µg/mL,0%
CC(C)=CCc1c(C)cc2cc3c(c(O)c2c1O)C(O)=CC(=O)C3(CC=C(C)C)C/C=C(\C)CO,-,BACTEC,H37Rv,MIC,-,≥12.5 µg/mL
CN[C@@H]1[C@H](O[C@H]2[C@H](O[C@H]3[C@H](O)[C@@H](O)[C@H](N=C(N)N)[C@@H](O)[C@@H]3N=C(N)N)O[C@@H](C)[C@]2(O)C=O)O[C@@H](CO)[C@H](O)[C@H]1O,-,-,Isolate 10,MIC,-,4 µg/mL
CN(C)Cc1cc(C(=O)/C=C/c2c(F)cccc2Cl)cc(CN(C)C)c1O,-,resazurin,H37Rv,inhibition,6.25 µg/mL,9%
O=C(Nc1cccc2ccc(C3CCCCC3)nc12)C(F)(F)F,-,-,H37Rv,MIC,-,>6.25 µg/mL

Blank or dashed fields: not listed here. Percent inhibition refers to the dose given; in toxicity tests it is the harm to the cells. MIC50, MIC90 and the like: level of inhibition, or share of isolates inhibited. ECn is the concentration giving n% inhibition of infection, replication or growth. MIC bound comes from a single tested concentration.